This experiment concerns the target human α9α10 nicotinic acetylcholine receptor (nAChR) (human) (UniProt Q9UGM1). In words: cell-based or functional assay.

This passage reports IC50 (nM), block of the acetylcholine response, voltage-clamped Xenopus oocytes and fold potency against [C3Pen;14R]RgIA5 (SEQ ID NO: 41) results from patent US10947274.

Substance “[C3Pen;Y13bhY;14r]RgIA4 (peptide; modification not given)” registered an IC50 (nM), block of the acetylcholine response, voltage-clamped Xenopus oocytes of 2.1 nM. “[C3Pen;Y13bhY;14R]RgIA5 (peptide; modification not given)” had an IC50 (nM), block of the acetylcholine response, voltage-clamped Xenopus oocytes of 0.055 nM and a fold potency against [C3Pen;14R]RgIA5 (SEQ ID NO: 41) of 9 fold.
